This passage reports inhibition results from ChEMBL document CHEMBL1157539, “Thousands of chemical starting points for antimalarial lead identification” (Nature, 2010).

The list shows a part of the results, in another mix than the full data.

The assay deals with Plasmodium falciparum. Description: GSK_TCMDC: Inhibition of Plasmodium falciparum 3D7 LDH activity, using an LDH reporter assay. Test compounds present at 2uM. The class given is functional, organism-based.
For the molecule `Cn1c(=O)n(C2CCN(CCCC(c3ccc(F)cc3)c3ccc(F)cc3)CC2)c2ccccc21`, the inhibition was found to be 0%.

The molecule `CC(C)(C)c1cc2cc(N(C(=O)c3ccc(C(F)(F)F)cc3)C3CCN(Cc4ccccc4)CC3)ccc2[nH]1` came in with an inhibition of 4%.
